In one assay the test system is T. cruzi. The experiment in a line: T. cruzi growth inhibition assay. As for the experimental part:
Trypanosoma crud growth inhibition assay: The Tulahuen strain of T. cruzi that expresses the Escherichia coli 3-galactosidase gene was utilized (PMID: 8913471). Mammalian stages of parasites were grown at 37 °C on monolayers of murine 3T3 fibroblasts in RPMI 1640 (Biowhittaker Inc., Walkersville, Md.) with 10% fetal bovine serum, penicillin, streptomycin, and glutamine. Growth inhibition assays were performed in 96-well tissue culture plates (Costar, Cambridge, Mass.). First, 3T3 fibroblasts were inoculated at 103/well using RPMI 1640 without phenol red (Biowhittaker Inc.) plus 10% fetal bovine serum and glutamine. The next day, the plates were infected with T. cruzi trypomastigotes at 104/well. After 4 h, drugs were added in serial dilutions to give a final volume of 200 μl/well. The plates were incubated at 37 °C in 5% CO2 atmosphere for 6 days. At this time. CPRG (100 μM final) and Nonidet P-40 (0.1% final) (Sigma Chemical Co., St. Louis, Mo.) were added and the plates were incubated at 37 °C for approximately 4 h. Wells with 0-galactosidase activity turned the media from yellow to red, and this was quantified on an enzyme-linked immunosorbent assay reader at A570.

The test system of the next assay is S. aureus. The experiment in a line: Susceptibility testing (MIC), S. aureus. The following applies: for S. aureus MIC: serum-free conditions. An excerpt:
(§1) Media and culture conditions. Mueller Hinton broth (MHB), cation adjusted Mueller Hinton broth (CA-MHB), Todd Hewitt Broth (THB) and Brain Heart Infusion broth (BHI) were purchased from Becton Dickinson (Franklin Lakes, NJ). Tryptic soy agar (TSA) plates and TSA with 5% sheep blood plates were purchased from Remel (San Diego, CA). MHB was used to assay all Staphylococcus aureus strains. CA-MHB was used for Staphylococcus epidermidis, Enterococcus faecalis, Enterococcus faecium, Escherichia coil, and Pseudomonas aeruginosa. THB broth supplemented with 1% yeast extract was used for Streptococcus pneumoniae and Streptococcus pyogenes. Staphylococcus. Enterococcus, Escherichia, and Pseudomonas strains were cultured at 37 °C with ambient air. Streptococcus strains were cultured in 37 °C with 5% CO2. Separate conditions for radiolabeled precursor uptake assays are described below.
Susceptibility testing: Minimum inhibitory concentration (MIC) determinations are performed in triplicate in 96-well round bottom microtiter plates (Corning, Corning NY) as described by the Clinical and Laboratory Standards Institute (CLSI). Serial two-fold dilutions of compounds are added to plates in 50 μL volumes. An additional 50 μL of media containing bacterial cells (1×10^6 CFUs/mL) is then added to each well. Maximum DMSO concentrations are 0.5%. Plates are incubated at 37 °C for at least 18 h before reading the susceptibility result by optical absorbance (OD600) using a BioTek ELx800. The lowest concentration causing ≥90% growth inhibition compared to the untreated control is recorded as the MIC (and also corresponded to the visual MIC). MICs are measured at least twice and the higher value (if different) is recorded herein.

The next assay has as its system T. brucei. The assay can be described thus: Trypanosoma brucei growth inhibition assay. Conditions: read-out: T. brucei EC50; in vitro growth inhibition. As for the experimental part:
Trypanosoma brucei growth inhibition assay: Compounds are tested for anti-trypanosomal activity against Trypanosoma brucei cells (BSF 427 parasites) in HMI-9 media containing 10% heat inactivated FBS 100 U mL^−1 penicillin/100 μg mL^−1 streptomycin at 37 °C with 5% CO2. Test compounds are assayed in a 96-well format in triplicate with serial 3-fold dilutions of compound or a pentamidine control against an initial inoculum of 10 000 cells/well and quantified at 48 hours with Alamar Blue (Invitrogen, Waltham, MA).

The next assay deals with S. pyogenes. The experiment in a line: Susceptibility testing (MIC), S. pyogenes.
Description: as §1
(§2) Susceptibility testing: Minimum inhibitory concentration (MIC) determinations are performed in triplicate in 96-well round bottom microtiter plates (Corning, Corning NY) as described by the Clinical and Laboratory Standards Institute (CLSI). […] Plates are incubated at 37 °C for at least 18 h before reading the susceptibility result by optical absorbance (OD600) using a BioTek ELx800. […] MICs are measured at least twice and the higher value (if different) is recorded herein.

For another assay, the system named is MRSA. The experiment in a line: Susceptibility testing (MIC), MRSA.
Description: as §1, §2

Where [1] appears, read: read-out: In Vitro EC50, anti-T. cruzi activity in vitro (Table 3).

The structures appear in SMILES notation. Read-outs that look alike come from different tables or passages of the source. Certain results were filed several times, with different values. This is not the full list of results. An entry can have further records. Values given together differ, and nothing given here explains why; some may be repeats, others may stem from another dose, organism or construct than stated.

Take `CCc1ncn(-c2nc(F)c(-c3cc(OC)c(OC)cc3Cl)n3cc(Cc4nc5nc(Cl)ccc5[nH]4)nc23)n1`: the EC50 in the assay with T. cruzi (setting [1]) is 9.29 nM and 2.96 nM.

For the compound `COc1cc(Cl)c(-c2cnc(S(C)(=O)=O)c3nn(Cc4nc5nc(Cl)ccc5[nH]4)cc23)cc1OC`, the “S. aureus (ATCC29213) MIC” value in the assay on S. aureus is < 0.0312 μg/mL and 0.0457 μg/mL.

In the case of `COc1cc(Cl)c(-c2c(F)nc(OC)c3nc(Cc4nc5nc(Cl)ccc5[nH]4)cn23)cc1OC`, the EC50 with T. cruzi (setting [1]) is 1.97 nM and 6.16 nM.

In the case of `COc1cc(Cl)c(-c2c(F)nc(-c3cncnc3)c3nc(Cc4nc5nc(Cl)ccc5[nH]4)cn23)cc1OC`, the “S. aureus MIC” value with S. aureus was 0.0359 ug/mL and < 0.0312 ug/mL.

With `COc1cc(Cl)c(-c2cnc(NCC(C)(C)O)c3nn(Cc4nc5nc(Cl)ccc5[nH]4)cc23)cc1OC`, in the assay with T. brucei, the EC50 is 2.35 nM and 8.47 nM.

As to `COc1cc(Cl)c(-c2cnc(N3CCNC(=O)C3)c3nn(Cc4nc5nc(Cl)ccc5[nH]4)cc23)cc1OC`, the “S. pyogenes (ATCC19615) MIC” value in the assay on S. pyogenes is < 0.0312 μg/mL and 0.0729 μg/mL. Besides, the EC50 with T. brucei is 4.42 nM and 16.3 nM.

Regarding `COc1cc(Cl)c(-c2cnc([S+](C)[O-])c3nn(Cc4nc5nc(Cl)ccc5[nH]4)cc23)cc1OC` (stereo not shown), the EC50 in the assay with T. cruzi (read-out: T. cruzi EC50, in vitro growth inhibition (Table 4)) is listed as 94.7 nM, 222 nM, 245 nM.

As to `COc1cc(Cl)c(-c2cnc(NCC(F)F)c3nn(Cc4nc5nc(Cl)ccc5[nH]4)cc23)cc1OC`, in the assay on T. brucei, the EC50 was 2.89 nM and 17.2 nM.

Regarding `COc1cc(Cl)c(-c2c(F)nc(-c3c(C)nn(C)c3C)c3nc(Cc4nc5nc(Cl)ccc5[nH]4)cn23)cc1OC`, the EC50 in the assay with T. cruzi (setting [1]) is recorded as 1.49 nM, 5.99 nM, 2.25 nM.

With `COc1cc(Cl)c(-c2c(F)nc(-c3ccnn3C)c3nc(Cc4nc5nc(Cl)ccc5[nH]4)cn23)cc1OC`, the “S. aureus MIC” value in the assay with S. aureus is < 0.0312 ug/mL and 0.0458 ug/mL. Further, in the assay on T. cruzi (setting [1]), the EC50 is on record as < 1.83 nM, 3.73 nM, 4.54 nM.

Turning to `COc1cc(Cl)c(-c2c(F)nc(-c3ccn(C)n3)c3nc(Cc4nc5nc(Cl)ccc5[nH]4)cn23)cc1OC`, the “S. aureus MIC” value with S. aureus is < 0.0312 ug/mL and 0.0171 ug/mL.

As for `COc1cc(Cl)c(-c2c(F)nc(-n3cnc(C)n3)c3nc(Cc4nc5nc(Cl)ccc5[nH]4)cn23)cc1OC`, in the assay with T. cruzi (setting [1]), the EC50 is 4.79 nM and 1.15 nM.

With `COc1cc(F)c(-c2c(F)nc(-c3cncnc3)c3nc(Cc4nc5nc(Cl)ccc5[nH]4)cn23)cc1OC`, the “S. aureus MIC” value with S. aureus is < 0.0312 ug/mL and 0.0346 ug/mL.

`COc1cc(Cl)c(-c2c[n+]([O-])cc3nn(Cc4nc5nc(Cl)ccc5[nH]4)cc23)cc1OC`: the “S. aureus (ATCC29213) MIC” value in the assay with S. aureus is 0.699 μg/mL and 3.64 μg/mL. Further, in the assay on T. brucei, the EC50 is listed as 65.7 nM, 561 nM, 427 nM.

For `COc1cc(Cl)c(-c2c(F)nc(-c3c(C)cnn3C)c3nc(Cc4nc5nc(Cl)ccc5[nH]4)cn23)cc1OC`, the “S. aureus MIC” value in the assay on S. aureus is 0.0351 ug/mL and 0.101 ug/mL. The EC50 in the assay with T. cruzi (setting [1]) was < 1.83 nM, 8.92 nM, 9.05 nM.

Take `CCn1cc(-c2nc(F)c(-c3cc(OC)c(OC)cc3Cl)n3cc(Cc4nc5nc(Cl)ccc5[nH]4)nc23)cn1`: in the assay with T. cruzi (setting [1]), the EC50 is recorded as < 1.83 nM, 3.95 nM, 6.41 nM.

In the case of `COc1cc(Cl)c(-c2cncc3nn(Cc4nc5nc(F)ccc5[nH]4)cc23)cc1OC`, in the assay on MRSA, the “MRSA (ATCC33591) MIC” value is 0.123 μg/mL and 0.0519 μg/mL.

On to `COc1cc(Cl)c(-c2c(F)nc(-c3cccnc3)c3nc(Cc4nc5nc(Cl)ccc5[nH]4)cn23)cc1OC`, for which, in the assay on S. aureus, the “S. aureus MIC” value is < 0.0312 ug/mL and 0.0368 ug/mL. The EC50 in the assay with T. cruzi (setting [1]) is < 1.83 nM, 3.93 nM, 4.54 nM.

`COc1cc(Cl)c(-c2cncc3nn(Cc4nc5nc(Cl)ccc5[nH]4)cc23)cc1OC`: the “S. aureus (ATCC29213) MIC” value with S. aureus was < 0.0312 μg/mL and 0.101 μg/mL.

Consider `COc1cc(Cl)c(-c2c(F)nc(-c3ccncc3)c3nc(Cc4nc5nc(Cl)ccc5[nH]4)cn23)cc1OC`, for which the “S. aureus MIC” value with S. aureus was < 0.0312 ug/mL and 0.0135 ug/mL.

In the case of `COc1cc(Cl)c(-c2c(F)nc(-c3cnn(CCO)c3)c3nc(Cc4nc5nc(Cl)ccc5[nH]4)cn23)cc1OC`, the EC50 with T. cruzi (setting [1]) is 3.09 nM and 9.56 nM.

On to `COc1cc(Cl)c(-c2cnc(N3CCOCC3)c3nn(Cc4nc5nc(Cl)ccc5[nH]4)cc23)cc1OC`, for which the “S. aureus (ATCC29213) MIC” value with S. aureus is 0.257 μg/mL and 0.102 μg/mL. The EC50 in the assay on T. brucei was < 0.91 nM, 3.26 nM, 1.06 nM.

On to `COc1cc(Cl)c(-c2cnc(Cl)c3nn(Cc4nc5nc(Cl)ccc5[nH]4)cc23)cc1OC`, for which the “S. aureus (ATCC29213) MIC” value in the assay on S. aureus was 0.127 μg/mL and 0.0504 μg/mL.

Turning to `COc1cc(Cl)c(-c2c(F)nc(-c3cn(C)nc3C)c3nc(Cc4nc5nc(Cl)ccc5[nH]4)cn23)cc1OC`, the “S. aureus MIC” value in the assay on S. aureus is 0.0995 ug/mL and 0.0253 ug/mL. In addition, in the assay on T. cruzi (setting [1]), the EC50 was < 1.83 nM, 3.86 nM, 6 nM.

The EC50 is the concentration that produces a half-maximal response.

The record behind these values is patent US20260382604A1, “Inhibitors of Type 1 Methionyl-tRNA Synthetase and Methods of Using Them” (published 2026).
